Pooled drug test results. Numbers come from NIAID ChemDB, via PubChem.

Common to all: tests on isolated targets; agent: Hepatitis C virus

Lines come from different laboratories, so protocols vary. An empty or dashed field is not shown. ICn: concentration for n% inhibition. Two numbers with a dash give a range or band. Percent inhibition refers to the dose given; in toxicity tests it is the harm to the cells.

SMILES,protein,read-out,dose,value
CCN(C(=O)C1CCCC1)c1cc(-c2ccccc2)sc1C(=O)O,NS3 ATPase,IC50,,5–20 µM
Cc1ccc(-c2nc(C(=O)O)c(O)c(=O)[nH]2)s1,HCV polymerase,IC50,,<25 µM
COc1cc(COc2cccc(-c3cnc4c(C(=O)O)cnn4c3C3CCCCC3)c2)cc(OC)c1,RNA-dependent RNA polymerase,IC50,,1–10 µM
O=C(O)c1ccc2c(c1)nc(-c1ccc3nc(C(=O)N(c4ccc(Cl)cc4)C4CCCCC4)ccc3c1)n2C1CCCCC1,NS5B polymerase,inhibition,33 µM,87.53%
O=C(O)c1cnn2c(C3CCCCC3)c(-c3cccc(OCc4ccc(Cl)c(Cl)c4)c3)cnc12,RNA-dependent RNA polymerase,IC50,,1–10 µM
O=C(O)c1ccc2c(c1)nc(-c1ccc3nc(-c4cc[nH]c4)ccc3c1)n2C1CCCCC1,NS5B polymerase,inhibition,33 µM,88.94%
O=C(O)c1cc2nc(-c3ccc(Cl)cc3Cl)cc(-c3cccc(OCc4ccccc4)c3)n2n1,RNA-dependent RNA polymerase,IC50,,1–10 µM
O=C(O)c1nc(-c2ccccc2)[nH]c(=O)c1O,HCV polymerase,IC50,,<100 µM
O=C(N[C@@H](C(=O)O)c1ccc(O)cc1)c1cnn2c(C3CCCCC3)c(-c3ccc(F)cc3)cnc12,RNA-dependent RNA polymerase,IC50,,<1 µM
O=C(Nc1cscc1-c1nc(C(=O)O)c(O)c(=O)[nH]1)NC(Cc1ccccc1)c1ccccc1,HCV polymerase,IC50,,<25 µM
O=C(O)c1ccc2c(c1)nc(-c1ccc3nc(-c4cccc(OCC(=O)N5CCCC5)c4)ccc3c1)n2C1CCCCC1,NS5B polymerase,inhibition,100 µM,96.99%
O=C(Nc1ccccc1-c1nc(C(=O)O)c(O)c(=O)[nH]1)NS(=O)(=O)c1ccccc1Cl,HCV polymerase,IC50,,<100 µM
O=C(O)c1cc2nc(-c3ccc(C(F)(F)F)cc3)cc(-c3ccccc3F)n2n1,RNA-dependent RNA polymerase,IC50,,>10 µM
O=C(NCCCc1ccccc1)Nc1cc(-c2ccccc2)sc1C(=O)O,NS3 ATPase,IC50,,5–20 µM
O=C(O)c1nc(-c2cscc2NS(=O)(=O)c2ccc3ccccc3c2)[nH]c(=O)c1O,HCV polymerase,IC50,,<25 µM
O=C(O)c1ccc2c(c1)nc(-c1ccc3cc(-c4ccccc4)cnc3c1)n2C1CCCCC1,NS5B polymerase,inhibition,33 µM,94.87%
CONC(=O)c1cnn2c(C3CCCCC3)c(-c3ccc(OCc4ccccc4)cc3)cnc12,RNA-dependent RNA polymerase,IC50,,>10 µM
COc1ccc(-c2cccc([N+](=O)[O-])c2)c(-c2ccc3cc(-c4nc5cc(C(=O)O)ccc5n4C4CCCCC4)ccc3n2)c1,NS5B polymerase,inhibition,100 µM,98.26%
O=C(O)c1nc(-c2ccccc2NS(=O)(=O)c2cc(S(=O)(=O)c3ccccc3)cs2)[nH]c(=O)c1O,HCV polymerase,IC50,,<100 µM
C=CCN(C(=O)Cc1ccc(C(F)(F)F)cc1)c1cc(-c2ccccc2)sc1C(=O)O,NS3 ATPase,IC50,,>20 µM
C[C@@H](O)C(NC(=O)c1ccc2c(c1)nc(-c1ccc3nc(-c4ccccc4)cnc3c1)n2C1CCCCC1)C(=O)O,NS5B polymerase,inhibition,33 µM,78.89%
O=C(O)c1cc2nc(-c3cccc(Cl)c3)cc(-c3ccccc3Cl)n2n1,RNA-dependent RNA polymerase,IC50,,>10 µM
Cc1ccc(C(=O)N(C)c2cc(-c3ccc(N)cc3)sc2C(=O)O)cc1,NS3 ATPase,IC50,,5–20 µM
CN(C)CCNC(=O)c1ccc(-c2ccccc2)c(-c2ccc3cc(-c4nc5cc(C(=O)O)ccc5n4C4CCCCC4)ccc3n2)c1,NS5B polymerase,inhibition,100 µM,99.97%
COc1ccc(-c2cc(N(C(=O)C3CCC(C)CC3)C(C)C)c(C(=O)O)s2)cc1,NS3 ATPase,IC50,,<5 µM
O=C(NCc1ccoc1)Nc1cscc1-c1nc(C(=O)O)c(O)c(=O)[nH]1,HCV polymerase,IC50,,<25 µM
COc1ccc(-c2ccc(Cl)cc2)c(-c2ccc3cc(-c4nc5cc(C(=O)O)ccc5n4C(C)C)ccc3n2)c1,NS5B polymerase,inhibition,100 µM,101%

A second listing of 4 rows from above:

O=C(NCCCc1ccccc1)Nc1cc(-c2ccccc2)sc1C(=O)O ; protein: NS3 ATPase ; read-out: IC50 ; value: 5–20 µM
O=C(O)c1cc2nc(-c3cccc(Cl)c3)cc(-c3ccccc3Cl)n2n1 ; protein: RNA-dependent RNA polymerase ; read-out: IC50 ; value: >10 µM
COc1ccc(-c2ccc(Cl)cc2)c(-c2ccc3cc(-c4nc5cc(C(=O)O)ccc5n4C(C)C)ccc3n2)c1 ; protein: NS5B polymerase ; read-out: inhibition ; dose: 100 µM ; value: 101%
O=C(O)c1ccc2c(c1)nc(-c1ccc3nc(C(=O)N(c4ccc(Cl)cc4)C4CCCCC4)ccc3c1)n2C1CCCCC1 ; protein: NS5B polymerase ; read-out: inhibition ; dose: 33 µM ; value: 87.53%